Measured values from several laboratories, pooled; numbers as filed in NIAID ChemDB.

All rows: whole-cell or culture tests; species: HIV-1; cells: CEM; read-out: fold resistance

Fold resistance has wild type as its base. Blank or dashed fields: not listed here. Lines come from different laboratories, so protocols vary.

smiles | strain or isolate | changes | read by | value
O=C1N(Cc2ccccc2)c2cscc2S(=O)(=O)N1Cc1ccccc1 |  | RT-K103N | syncytia | >5.78
CC(C)Nc1cccnc1N1CCN(C(=O)c2cc3ccccc3[nH]2)CC1 | IIIB | RT-C181I | syncytia | 95
Cc1occc1C(=S)Nc1ccc(Cl)c(/C=N/OC(C)(C)C)c1 | IIIB | RT-M184V | syncytia | 0.14
Cc1ccnc2c1NC(=O)c1cccnc1N2C1CC1 | P-1 (RT-K103N Y144F) | RT-K103N Y144F | cytopathic effect | 402
CC(C)=CCN1Cc2cc(Cl)cc3[nH]c(=S)n(c23)C[C@@H]1C | IIIB E-EBU(RT-Y181C) | RT-Y181C | syncytia | ≥250
Cc1cn([C@H]2C[C@H](N=[N+]=[N-])[C@@H](CO)O2)c(=O)[nH]c1=O |  | RT-K103N | cytopathic effect | 1.57
Fc1cccc(F)c1C1SCc2nc3ccccc3n21 | IIIB | RT-D138K | cytopathic effect / XTT | 1.24
C#CCN1C(=O)N(Cc2ccccc2)S(=O)(=O)c2cscc21 | IIIB | RT-Y181C | syncytia | 7.08
Cc1occc1C(=S)Nc1ccc(Cl)c(/C=N/OC(C)(C)C)c1 | IIIB | RT-E138K | syncytia | 9.09
CC(C)=CCN1Cc2cc(Cl)cc3[nH]c(=S)n(c23)C[C@@H]1C | HXB2 | RT-M41L T215Y | syncytia | 0.722
Nc1ncnc2c1ncn2CCOCP(=O)(O)O | IIIB TSAO-T(RT-E138K) | RT-E138K | syncytia | 2.14
CC(C)=CCOc1cc(NC(=S)c2ccoc2C)ccc1Cl | IIIB | RT-E138K | cytopathic effect | 2
N#CCN1C(=O)N(Cc2ccccc2)S(=O)(=O)c2cscc21 | IIIB | RT-Y181C | syncytia | >250
Cc1cn([C@@H]2O[C@H](CO[Si](C)(C)C(C)(C)C)C3(OS(=O)(=O)C=C3N)[C@H]2O[Si](C)(C)C(C)(C)C)c(=O)n(C)c1=O | IIIB | RT-K103N | p24 | 5.75
Fc1cccc(F)c1[C@@H]1SCc2nc3ccccc3n21 | IIIB | RT-Y181C | cytopathic effect / XTT | ≥6.25
Nc1ncnc2c1ncn2CCOCP(=O)(O)O | IIIB | RT-E138K | syncytia | 1.76
Cc1cn([C@@H]2O[C@H](CO[Si](C)(C)C(C)(C)C)[C@]3(C(N)=CS(=O)(=O)N3C)[C@H]2O[Si](C)(C)C(C)(C)C)c(=O)n(C)c1=O |  | RT-K103N | cytopathic effect | >100
Cc1ccnc2c1NC(=O)c1cccnc1N2C1CC1 |  | RT-Y188H | cytopathic effect | >340.9
Cc1cn([C@@H]2O[C@H](CO[Si](C)(C)C(C)(C)C)C3(OS(=O)(=O)C=C3N)[C@H]2O[Si](C)(C)C(C)(C)C)c(=O)n(C)c1=O | IIIB | RT-K103N | syncytia | 5.75
CC(C)=CCOc1cc(NC(=S)c2ccsc2C)ccc1Cl | IIIB | RT-V106A | cytopathic effect | 1.67
Cc1cn([C@@H]2O[C@H](CO[Si](C)(C)C(C)(C)C)[C@]3(C(N)=CS(=O)(=O)N3C)[C@H]2O[Si](C)(C)C(C)(C)C)c(=O)n(C(=O)OC(C)(C)C)c1=O |  | RT-E138K | cytopathic effect | >2.85
O=c1[nH]cnc2c1ncn2[C@H]1CC[C@@H](CO)O1 | IIIB TIBO R82150-resistant (RT L100I) | RT-L100I | syncytia | 3
CCOCn1c(Sc2ccccc2)c(CC)c(=O)[nH]c1=O | IIIB | RT-Y181C | syncytia | 51.4
Cc1cn([C@@H]2O[C@H](CO[Si](C)(C)C(C)(C)C)C3(OS(=O)(=O)C=C3N)[C@H]2O[Si](C)(C)C(C)(C)C)c(=O)n(C)c1=O | Pyr(RT-Y181C) | RT-Y181C | syncytia | 82.5
O=c1[nH]cnc2c1ncn2[C@H]1CC[C@@H](CO)O1 | IIIB | RT-E138K | syncytia | 1.15
CCOCn1c(Cc2cc(C)cc(C)c2)c(CC)c(=O)[nH]c1=O | IIIB NEV(RT-V106A) | RT-V106A | syncytia | 10
O=C1N(Cc2ccccc2)c2cscc2S(=O)(=O)N1Cc1ccccc1 | IIIB | RT-Y188H | syncytia | 4.33
Cc1c(Sc2ccccc2)n(COCCO)c(=O)[nH]c1=O | IIIB E-EBU(RT-Y181C) | RT-Y181C | syncytia | >13.3
Cc1cc(C)nc(N2C(=O)CSC2c2c(Cl)cccc2Cl)n1 |  | RT-K103N | cytopathic effect | 676
CC(C)=CCN1Cc2cc(Cl)cc3[nH]c(=S)n(c23)C[C@@H]1C | IIIB | RT-Y181C | syncytia | 78.3
O=c1[nH]cnc2c1ncn2[C@H]1CC[C@@H](CO)O1 | HXB2 | RT-M41L T215Y | syncytia | 1.71
CCN1C(=O)N(Cc2ccccc2)S(=O)(=O)c2cscc21 | IIIB | RT-Y181C | syncytia | >207
CCOCn1c(Cc2cc(C)cc(C)c2)c(CC)c(=O)[nH]c1=O | IIIB | RT-C181I | syncytia | 38.9
Cc1cn([C@@H]2O[C@H](CO[Si](C)(C)C(C)(C)C)[C@@]3(OS(=O)(=O)C=C3N)[C@H]2O[Si](C)(C)C(C)(C)C)c(=O)[nH]c1=O | IIIB | RT-E138K | syncytia | 124
CCOCn1c(Sc2ccccc2)c(CC)c(=O)[nH]c1=O | IIIB BHAP(RT-L100I) | RT-L100I | syncytia | 6
Fc1ccc(F)c(C2OCc3nc4ccccc4n32)c1 | IIIB | RT-E138K | cytopathic effect | ≥2.42
Nc1nc2c(ncn2[C@H]2CC[C@@H](CO)O2)c(=O)[nH]1 | NEV(RT-V106A) | RT-V106A | syncytia | 0.7
Cc1cc(SC2=C(O)C[C@@](CCc3ccc(N)cc3)(C(C)C)OC2=O)c(C(C)(C)C)cc1CO |  | PR-L10I L19I S37Q M46L I54V R57K L63P V71V V82A L90M | cytopathic effect | 2
Nc1ccn([C@H]2CC[C@@H](CO)O2)c(=O)n1 | HXB2 | RT-M41L T215Y | syncytia | 3.8
CCN1C(=O)N(Cc2cccc(Cl)c2)S(=O)(=O)c2cscc21 |  | RT-Y188H | syncytia | 10.2
CN1C(=O)N(Cc2ccccc2)S(=O)(=O)c2cscc21 | IIIB | RT-V106A | syncytia | >141
CCOCn1c(Cc2ccccc2)c(C(C)C)c(=O)[nH]c1=O | IIIB | RT-K103N | syncytia | 380
CCN1C(=O)N(Cc2ccccc2)S(=O)(=O)c2cscc21 |  | RT-K103N | syncytia | >111
COc1cc(C)nc(N2C(=O)CSC2c2c(Cl)cccc2Cl)n1 |  | RT-K103N | cytopathic effect | 526.8
CCc1cc(NCc2nc3c(Cl)ccc(Cl)c3o2)c(=O)[nH]c1C | IIIB HEPT-resistant (RT Y188H) | RT-Y188H | syncytia | 214
Cc1ccnc(N2C(=O)CSC2c2c(Cl)cccc2Cl)n1 |  | RT-Y188H | cytopathic effect | 229.7
Cc1occc1C(=S)Nc1ccc(Cl)c(/C=N/OC(C)(C)C)c1 | HXB2 | RT-M41L T215Y | syncytia | 1.5
CCOCn1c(Cc2cc(C)cc(C)c2)c(CC)c(=O)[nH]c1=O | IIIB TIBO R82913 STR-B22 (RT L100I Y188H) | RT-L100I Y188H | syncytia | 120
Cc1cn([C@@H]2O[C@H](CO[Si](C)(C)C(C)(C)C)C3(OS(=O)(=O)C=C3N)[C@H]2O[Si](C)(C)C(C)(C)C)c(=O)n(C)c1=O | IIIB | RT-Y188C | cytopathic effect / XTT | 80
Cc1cn([C@@H]2O[C@H](CO[Si](C)(C)C(C)(C)C)C3(OS(=O)(=O)C=C3N)[C@H]2O[Si](C)(C)C(C)(C)C)c(=O)n(C)c1=O | IIIB | RT-E138K | syncytia | >1600
N#CCN1C(=O)N(Cc2ccccc2)S(=O)(=O)c2cscc21 |  | RT-Y188H | syncytia | 50
CC1=C(N)C2(OS1(=O)=O)[C@@H](CO[Si](C)(C)C(C)(C)C)O[C@@H](n1cc(C)c(=O)n(C)c1=O)[C@@H]2O[Si](C)(C)C(C)(C)C | TSAO-m3T-resistant (RT E138K) | RT-E138K | cytopathic effect | >227
Fc1cccc(F)c1C1SCc2nc3ccccc3n21 |  | RT-Y188H | cytopathic effect | 2.99
Nc1ncnc2c1ncn2CC(CF)OCP(=O)(O)O | IIIB TIBO R82150-resistant (RT L100I) | RT-L100I | syncytia | 0.667
Cc1occc1C(=S)Nc1ccc(Cl)c(/C=N/OC(C)(C)C)c1 | IIIB | RT-Y181C | p24 | 1.5
CC[C@H]1C(=O)Nc2ccc(F)cc2N1C(=O)OC(C)C | E-2 (RT-V106A) | RT-V106A | cytopathic effect | 10
Cc1cn([C@@H]2O[C@H](CO[Si](C)(C)C(C)(C)C)C3(OS(=O)(=O)C(Br)=C3N)[C@H]2O[Si](C)(C)C(C)(C)C)c(=O)[nH]c1=O | TSAO-m3T-resistant (RT E138K) | RT-E138K | cytopathic effect | >2.35
Cc1cn([C@@H]2O[C@H](CO[Si](C)(C)C(C)(C)C)C3(OS(=O)(=O)C=C3N)[C@H]2O[Si](C)(C)C(C)(C)C)c(=O)n(C)c1=O | NNRTI-resistant | RT-K103N | cytopathic effect | 10.36
COc1ccc2c(c1)N(C(=O)OC(C)C)[C@@H](CSC)C(=S)N2 | IIIB | RT-V106A | p24 | 2
Nc1nc2c(ncn2[C@H]2CC[C@@H](CO)O2)c(=O)[nH]1 | IIIB TIBO R82913 STR-2 (RT K103N) | RT-K103N | syncytia | 2
CCn1c(=O)c(C)cn([C@@H]2O[C@H](CO[Si](C)(C)C(C)(C)C)C3(OS(=O)(=O)C=C3N)[C@H]2O[Si](C)(C)C(C)(C)C)c1=O | IIIB | RT-E138K | syncytia | >833
CC(C)=CCN1Cc2cc(Cl)cc3[nH]c(=S)n(c23)C[C@@H]1C | IIIB | RT-M184V | p24 | 0.55
C[C@H](COc1cc(N)nc(N)n1)OCP(=O)(O)O | Clinical isolate C19 | RT-M41L V118I L210W T215Y | syncytia | 7.57
Nc1ccn([C@H]2CC[C@@H](CO)O2)c(=O)n1 | IIIB | RT-E138K | syncytia | 0.8
CC[C@H]1C(=O)Nc2ccc(F)cc2N1C(=O)OC(C)C | TSAO-m3T-resistant | RT-E138K | cytopathic effect | 2.7
CC(C)=CCN1Cc2cccc3[nH]c(=S)n(c23)C[C@@H]1C | IIIB TIBO R82913 STR-B02 (RT L100I E138K) | RT-L100I E138K | syncytia | 250
CC(C)Nc1cccnc1N1CCN(C(=O)c2cc3ccccc3[nH]2)CC1 | MN-QUIN(RT-G190E) | RT-G190E | syncytia | 110
Cc1occc1C(=S)Nc1ccc(Cl)c(C(=O)OC2CCCC2)c1 | IIIB | RT-E138K | syncytia | 7
Fc1cccc(F)c1C1SCc2nc3ccccc3n21 | IIIB | RT-L100I | cytopathic effect / MTT | 2.25

The first 4 rows once more:

smiles	strain or isolate	changes	read by	value
O=C1N(Cc2ccccc2)c2cscc2S(=O)(=O)N1Cc1ccccc1		RT-K103N	syncytia	>5.78
CC(C)Nc1cccnc1N1CCN(C(=O)c2cc3ccccc3[nH]2)CC1	IIIB	RT-C181I	syncytia	95
Cc1occc1C(=S)Nc1ccc(Cl)c(/C=N/OC(C)(C)C)c1	IIIB	RT-M184V	syncytia	0.14
Cc1ccnc2c1NC(=O)c1cccnc1N2C1CC1	P-1 (RT-K103N Y144F)	RT-K103N Y144F	cytopathic effect	402